According to publication PMC11852808:

Substance: protein VII: K2AK3A
- localisation_or_trafficking (acetylation at K2): increases
- localisation_or_trafficking (acetylation at K3): increases

Like-named read-outs stand apart in the source and are kept apart here.
